Measured values from several laboratories, pooled; numbers as filed in NIAID ChemDB.

Shared fields: tests on isolated targets; agent: HIV-1; protein: Protease; read by: fluorescence; read-out: IC50

a–b is a range or a potency band. An empty or dashed field is not shown. Rows are shuffled and stem from different studies. ICn is the concentration giving n% inhibition.

{"compound": "CC(C)(C)NC(=O)c1ccccc1C[C@H](O)[C@H](Cc1ccccc1)NC(=O)c1cccc(C(=O)N2CCc3ccccc3C2)c1", "value": "0.028 µg/mL"}
{"compound": "CC(C)[C@H](NC(=O)[C@H](C)NC(=O)OCc1ccccc1)C(=O)N[C@@H](Cc1ccccc1)C[C@H](O)[C@H](Cc1ccccc1)NC(=O)OCc1cncs1", "value": "0.005 µM"}
{"compound": "CC(C)C[C@H](NC(=O)[C@H](Cc1ccccc1)C[C@@H](O)[C@H](Cc1ccccc1)NC(=O)OC(C)(C)C)C(=O)N[C@@H](Cc1ccccc1)C(N)=O", "value": "1 µM"}
{"compound": "CC(C)(C)OC(=O)N[C@@H](Cc1ccccc1)[C@H](O)[C@H]1O[C@@H]1Cc1ccccc1", "value": "570 µM"}
{"compound": "CC(C)(C)OC(=O)N[C@H]1C[C@H]2O[C@H]2[C@H](Cc2ccccc2)N(Cc2ccccc2)C1=O", "value": "15.7 µM"}
{"compound": "CC(C)CCC[C@@H](C)[C@H]1CC[C@H]2[C@@H]3CC=C4C[C@H](SC[C@@H]5CC[N+]6=C(N[C@H](CSCC(=O)NCC(=O)N[C@@H](C)C(=O)N[C@H](C(=O)N[C@@H](CC(C)C)C(=O)N[C@@H](CC(N)=O)C(=O)N[C@@H](Cc7ccccc7)C(=O)OCc7ccccc7)[C@@H](C)OCc7ccccc7)CC6)N5)CC[C@]4(C)[C@H]3CC[C@]12C", "value": "3 µM"}
{"compound": "CC[C@H](C)[C@@H]1NC(=O)[C@@H](NC[C@H](O)[C@H](Cc2ccccc2)NC(=O)[C@@H](NC(=O)[C@H](CC(C)C)NC(C)=O)C(C)C)Cc2ccc(cc2)OCCCNC1=O", "value": "0.002 µM"}
{"compound": "CC(C)(C)NC(=O)[C@@H]1CCCN1C(=O)[C@@H](O)[C@H](Cc1ccccc1)NC(=O)OCc1ccccc1", "value": "2 µM"}
{"compound": "CC(C)C[C@H](NC(=O)[C@@H](NC(=O)N(C)Cc1ccccn1)C(C)C)C(=O)C(F)(F)[C@H](CC(C)C)NC(=O)[C@@H](NC(=O)N(C)Cc1ccccn1)C(C)C", "value": "0.00155 µM"}
{"compound": "O=S1(=O)[C@H](Cc2ccccc2)[C@H](OCc2ccccc2)[C@H](O)[C@@H](O)[C@@H](OCc2ccccc2)[C@@H]1Cc1ccccc1", "value": "<2 µM"}
{"compound": "CC[C@H](C)[C@H](NC(=O)[C@@H]1CCCN1C[C@@H](O)[C@H](Cc1ccccc1)NC(=O)[C@H](CC(N)=O)NC(=O)[C@H](CC(C)C)NC(=O)[C@H](CO)NC(C)=O)C(=O)N[C@H](C(=O)OC)C(C)C", "value": "0.022 µM"}
{"compound": "Cc1ccc(C(=O)N(C)Cc2cccnc2)cc1C(=O)N[C@@H](Cc1ccccc1)[C@@H](O)CN1C[C@H]2CCCC[C@H]2C[C@H]1C(=O)NC(C)(C)C", "value": "0.0045 µg/mL"}
{"compound": "CCC(C)[C@H](NC(=O)CCCCCCCCCCCCCCC(=O)N[C@@H](CC(C)C)C(=O)N[C@@H](CC(N)=O)C(=O)N[C@@H](Cc1ccccc1)C(=O)O)C(=O)N[C@H](C(=O)N[C@@H](CC(C)C)C(=O)N[C@@H](Cc1c[nH]c2ccccc12)C(=O)O)C(C)O", "value": "1.1 µM"}
{"compound": "CCCC1(CCC)CC(O)=C(Cc2cccc(NS(=O)(=O)c3cn(C)cn3)c2)C(=O)O1", "value": "1 µM"}
{"compound": "CN(C)c1nc(CO[C@@H]2[C@H](O)[C@@H](O)[C@@H](OCc3csc(N(C)C)n3)[C@@H](Cc3ccccc3)S(=O)(=O)[C@@H]2Cc2ccccc2)cs1", "value": "<2 µM"}
{"compound": "CC(C)CN(C[C@@H](O)[C@H](Cc1ccccc1)NC(=O)[C@H](CC(N)=O)NC(=O)c1ccc2ccccc2n1)C(=O)NC(C)(C)C", "value": "0.0063 µM"}
{"compound": "[O]=[V]([O-])([O-])[O-]", "value": "1–20 µM"}
{"compound": "Cc1ccc(C(=O)N(C)C)cc1C(=O)N[C@@H](Cc1ccccc1)[C@@H](O)CN1C[C@H]2CCCC[C@H]2C[C@H]1C(=O)NC(C)(C)C", "value": "0.185 µg/mL"}
{"compound": "CC(C)(C)OC(=O)N[C@@H]1C[C@@H]2O[C@@H]2CN(Cc2ccccc2)C1=O", "value": "10.5 µM"}
{"compound": "CC(O)C(=O)[O-].CC(O)C(=O)[O-].[Ca+2]", "strain": "SF2", "value": ">1000 µM"}
{"compound": "COC(=O)[C@@H](NC(=O)[C@@H](NC(=O)[C@@H](Cc1ccccc1)NC(=O)N[C@H](Cc1ccccc1)NC(=O)[C@H](C)NC(=O)[C@H](C)N)C(C)C)C(C)C", "value": "47 µM"}
{"compound": "Cc1nc(CO[C@@H]2[C@H](O)[C@@H](O)[C@@H](OCc3csc(C)n3)[C@@H](Cc3ccccc3)S(=O)(=O)[C@@H]2Cc2ccccc2)cs1", "value": "<2 µM"}
{"compound": "CC[C@H](C)[C@H](NC(=O)[C@H](Cc1ccccc1)N[C@H](O)CC(=O)[C@H](Cc1ccccc1)NC(=O)[C@@H](NC(=O)[C@H](CC(C)C)NC(C)=O)C(C)C)C(=O)N[C@H](C(N)=O)C(C)C", "value": "0.005 µM"}
{"compound": "Cc1c(C(=O)N[C@@H](Cc2ccccc2)[C@@H](O)Cc2ccccc2C(=O)NC(C)(C)C)cccc1C(=O)N1CCc2ccccc2C1", "value": "1 µg/mL"}
{"compound": "CC(C)[C@H](NC(=O)[C@H](C)NC(=O)OCc1ccccc1)C(=O)N[C@@H](Cc1ccccc1)[C@H](O)CN1C[C@H]2CCCC[C@H]2C[C@H]1C(=O)NC(C)(C)C", "value": "0.004 µM"}
{"compound": "Cc1ccc(C(=O)N(C)Cc2ccccn2)cc1C(=O)N[C@@H](CSc1ccccc1)[C@@H](O)CN1C[C@H]2CCCC[C@H]2C[C@H]1C(=O)NC(C)(C)C", "value": "0.0148 µg/mL"}
{"compound": "COc1cccc(CO[C@@H]2[C@H](O)[C@@H](O)[C@@H](OCc3cccc(OC)c3)[C@@H](Cc3ccccc3)S(=O)(=O)[C@@H]2Cc2ccccc2)c1", "value": "<2 µM"}
{"compound": "Cc1ccc(C(=O)N(C)Cc2ccccn2)cc1C(=O)N[C@@H](CSc1ccc2ccccc2c1)[C@@H](O)CN1C[C@H]2CCCC[C@H]2C[C@H]1C(=O)NC(C)(C)C", "value": "0.0113 µg/mL"}
{"compound": "[Cl][Au-]([Cl])([Cl])[Cl].[Na+]", "strain": "SF2", "value": "14.4 µM"}
{"compound": "CC(C)[C@H](NC(=O)OCc1ccccc1)C(=O)N[C@@H](Cc1ccccc1)C(=O)C(F)(F)[C@H](Cc1ccccc1)NC(=O)[C@@H](NC(=O)OCc1ccccc1)C(C)C", "value": "0.0001 µM"}
{"compound": "CC(C)(C)OC(=O)N[C@H]1C(=O)N(Cc2ccccc2)C[C@@H](O)[C@@H](O)[C@@H]1c1ccccc1", "value": "75 µM"}
{"compound": "CC(C)[C@H](NS(=O)(=O)N(C)Cc1ccccn1)C(=O)N[C@@H](Cc1ccccc1)[C@H](O)[C@@H](O)[C@H](Cc1ccccc1)NC(=O)[C@@H](NS(=O)(=O)N(C)Cc1ccccn1)C(C)C", "value": "<0.05 µM"}
{"compound": "CC(C)[C@H](NC(=O)OCc1ccccn1)C(=O)N[C@@H](Cc1ccccc1)C(=O)C(F)(F)[C@H](Cc1ccccc1)NC(=O)[C@@H](NC(=O)OCc1ccccn1)C(C)C", "value": "0.00002 µM"}
{"compound": "N[C@@H](Cc1ccccc1)C(O)[C@@H](N)Cc1ccccc1", "value": "<50 µM"}
{"compound": "CC(C)[C@@H](C(=O)N[C@@H](Cc1ccccc1)C[C@H](O)[C@H](Cc1ccccc1)NC(=O)OCc1cncs1)N1CCCNC1=O", "value": "<0.0005 µM"}
{"compound": "O=S1(=O)[C@H](Cc2ccccc2)[C@H](Oc2ccccn2)[C@H](O)[C@@H](O)[C@@H](Oc2ccccn2)[C@H]1Cc1ccccc1", "value": "<2 µM"}
{"compound": "NC(=O)C[C@H](NC(=O)OCc1ccccc1)C(=O)NC(Cc1ccccc1)C(O)C(Cc1ccccc1)NC(=O)[C@H](CC(N)=O)NC(=O)OCc1ccccc1", "value": "0.91 µM"}
{"compound": "O=S1(=O)[C@H](Cc2ccccc2)[C@H](OCc2ccccc2)[C@H](O)[C@@H](O)[C@@H](OCc2ccccc2)[C@H]1Cc1ccccc1", "value": "<2 µM"}
{"compound": "CC[C@@]1(O)C(=O)OCc2c1cc1n(c2=O)Cc2c-1nc1ccccc1c2CO", "value": ">40 µg/mL"}

Repeating the first 5 entries:

compound	strain	value
CC(C)(C)NC(=O)c1ccccc1C[C@H](O)[C@H](Cc1ccccc1)NC(=O)c1cccc(C(=O)N2CCc3ccccc3C2)c1		0.028 µg/mL
CC(C)[C@H](NC(=O)[C@H](C)NC(=O)OCc1ccccc1)C(=O)N[C@@H](Cc1ccccc1)C[C@H](O)[C@H](Cc1ccccc1)NC(=O)OCc1cncs1		0.005 µM
CC(C)C[C@H](NC(=O)[C@H](Cc1ccccc1)C[C@@H](O)[C@H](Cc1ccccc1)NC(=O)OC(C)(C)C)C(=O)N[C@@H](Cc1ccccc1)C(N)=O		1 µM
CC(C)(C)OC(=O)N[C@@H](Cc1ccccc1)[C@H](O)[C@H]1O[C@@H]1Cc1ccccc1		570 µM
CC(C)(C)OC(=O)N[C@H]1C[C@H]2O[C@H]2[C@H](Cc2ccccc2)N(Cc2ccccc2)C1=O		15.7 µM